Target: 35S-labeled hamster PrPsen, glycophosphoinositol-negative form (35S-HaPrPsen) (Syrian golden hamster), P04273
Experiment: cell-based or functional assay

MKHMAGAKAAGAVVGGLGGYMLGSAMSRPMMHF (modifications not checked) [HaP109-141 (K116)]
IC50 of the conversion reaction: 150 µM

Reference: patent US20010041790A1
